# Results deposited as PubChem BioAssay AID504761 (Drosophila RNAi Screening Center, 2011).
# Assay: 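Fly genes whose silencing reduces dengue virus type 2 infection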 (primary screen)
# Cell system: D.Mel-2 cells from Drosophila
# Knock-down reagent: long dsRNA against Drosophila genes
# Treatment: infection with dengue virus type 2; dose and infection time not stated
# Measurement: 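Per well on two replicate plates, imaging gave the percent of cells positive for viral envelope protein, ranked by infection, and a nuclear count of cells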
# Direction: infection score: higher = more virus-infected cells; cell count: higher = more cells in the well
# Hit rule: 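Very low infection ranking in both replicate wells (chance probability at most 0.065), then a retest showing infection dropped 1.5-fold or more at p below 0.05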
# Meaning of the calls: active = confirmed: knock-down lowers infection; inactive = not picked or not confirmed
# In all, the deposit lists about 22,000 reagents; this is a random part of those that have a named target and a result. Of all reagents, 116 (0.52%) got an active call. 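Calls depend on retest data that are not deposited; infection was ranked per plate without normalising between plates; the unit of the infection score is not given.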 Raw values vary from plate to plate and are shown uncorrected. The numbers tell different reagents against one gene apart. The record does not give: the amount of reagent, the time to read-out.
gene,reagent no.,"infection score, replicate 1","infection score, replicate 2","cell count, replicate 1","cell count, replicate 2",outcome
blp,1,4.31,23.6,5223,4089,inactive
blp,2,12.5,0.44,1473,457,inactive
Wnk,1,5.1,12.2,5926,6081,inactive
TfIIB,1,4.51,7.35,5947,6111,inactive
Bdp1,1,7.72,7.01,6266,6292,inactive
Bdp1,2,1.8,1.89,1386,1847,inactive
CG2871,1,8.62,9.58,6463,6861,inactive
CG2871,2,31.4,15,5215,5640,inactive
msl-3,1,1.53,0.87,5962,5944,inactive
AMPdeam,1,11,4.59,6547,6629,inactive
AMPdeam,2,,,375,350,inactive
AMPdeam,3,4.67,10.1,6405,6500,inactive
eRF3,1,5.06,4.83,3281,2030,inactive
Rrp5,1,8.66,1.38,5887,6461,inactive
Rrp5,2,,,410,305,inactive
for,1,2.64,2.79,5533,5378,inactive
for,2,5.12,3.09,6092,6669,inactive
for,3,0.91,1.09,6032,6142,inactive
Oseg1,1,4.57,6.46,6977,6765,inactive
COX5A,1,5.83,15.7,5005,4821,inactive
Cyp1,1,32.5,2.05,5566,7121,inactive
Cyp1,2,31.1,5.74,6190,854,inactive
CG1663,1,2.99,2.19,6693,6520,inactive
CG1663,2,1.44,0.22,5538,458,inactive
CG1663,3,8.21,9.9,5248,4513,inactive
Tre1,1,10.3,9.24,6161,5854,inactive
Tre1,2,7.11,8.79,5713,1730,inactive
Crys,1,12.9,13.5,6473,5911,inactive
Crys,2,0.94,0.53,5973,6235,inactive
CG5805,1,23.8,14.7,5606,7069,inactive
CG5805,2,1.08,8.51,6854,6542,inactive
Marf,1,13,4.06,4815,5932,inactive
Marf,2,18.7,3.31,3410,5652,inactive
Parg,1,7.06,13.5,6301,6687,inactive
CG2218,1,6.09,16.2,6684,6720,inactive
CG2218,2,5.46,31.9,6478,5153,inactive
CG33958,1,9.61,18.3,3204,6238,inactive
CG33958,2,6.25,7.41,6446,6855,inactive
CG33958,3,9.13,22.4,6112,6054,inactive
